# Share of PSTVd loop 6 variants by leaf site

The pool varies loop 6 of the PSTVd intermediate strain in the pattern UNNNCGNNNG; wild type is UGACCGCGAG (upper and lower strand joined, each 5' to 3', the first 5 letters being the upper strand, closing pairs included).

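A pool of all variants was put on leaves of three Nicotiana benthamiana plants. Progeny were sequenced from the inoculated region (day 5), the margin of the inoculated leaf (day 10) and systemic leaves (day 12).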

Values are reads per thousand in the sample; higher means more abundant, 0 means not found. Each site shows the three plants. "Pool" is the share in the plasmid pool used as inoculum, on the same scale. The inoculated region was read from the minus strand, the other sites from the plus strand. The authors trace changes outside the varied positions to PCR and sequencing errors or to mutation in the plant; presence does not show that a variant is infectious alone.

{"sequence": "UGUACGAUUG", "pool": "0.431", "inoculated region": "0.0869 / 0.0719 / 0.129", "leaf margin": "0 / 0 / 0", "systemic leaves": "0.0180 / 0 / 0.0410"}
{"sequence": "UGUACGCAAG", "pool": "0.0915", "inoculated region": "0.904 / 0.736 / 0.682", "leaf margin": "0 / 0.151 / 0", "systemic leaves": "0 / 0 / 0"}
{"sequence": "UGUACGCACG", "pool": "0.196", "inoculated region": "0.122 / 0.0898 / 0.0738", "leaf margin": "0 / 0 / 0", "systemic leaves": "0 / 0 / 0"}
{"sequence": "UGUACGCAGG", "pool": "0.248", "inoculated region": "0.174 / 0.108 / 0.111", "leaf margin": "0 / 0 / 0", "systemic leaves": "0 / 0 / 0"}
{"sequence": "UGUACGCAUG", "pool": "0.118", "inoculated region": "0.0521 / 0.0898 / 0.166", "leaf margin": "0.0276 / 0 / 0", "systemic leaves": "0 / 0 / 0"}
{"sequence": "UGUACGCCAG", "pool": "0.261", "inoculated region": "0.0521 / 0.0898 / 0.0738", "leaf margin": "0.0276 / 0 / 0", "systemic leaves": "0 / 0 / 0"}
{"sequence": "UGUACGCCCG", "pool": "0.196", "inoculated region": "0.0869 / 0.0719 / 0.129", "leaf margin": "0.0552 / 0 / 0", "systemic leaves": "0 / 0 / 0"}
{"sequence": "UGUACGCCGG", "pool": "0.248", "inoculated region": "0.122 / 0 / 0.0922", "leaf margin": "0 / 0 / 0.0464", "systemic leaves": "0 / 0 / 0"}
{"sequence": "UGUACGCCUG", "pool": "0.261", "inoculated region": "0.0695 / 0 / 0.166", "leaf margin": "0 / 0 / 0", "systemic leaves": "0 / 0 / 0"}
{"sequence": "UGUACGCGAG", "pool": "0.209", "inoculated region": "0.139 / 0.108 / 0.240", "leaf margin": "0.276 / 0.101 / 0", "systemic leaves": "0.0180 / 0.182 / 0.0615"}
{"sequence": "UGUACGCGCG", "pool": "0.196", "inoculated region": "0.0521 / 0.108 / 0.221", "leaf margin": "0 / 0 / 0.0232", "systemic leaves": "0 / 0 / 0"}
{"sequence": "UGUACGCGGG", "pool": "0.288", "inoculated region": "0.0869 / 0.0898 / 0.0922", "leaf margin": "0 / 0 / 0", "systemic leaves": "0 / 0 / 0"}
{"sequence": "UGUACGCGUG", "pool": "0.196", "inoculated region": "0.104 / 0.108 / 0.0922", "leaf margin": "0 / 0 / 0.0232", "systemic leaves": "0 / 0 / 0"}
{"sequence": "UGUACGCUAG", "pool": "0.118", "inoculated region": "0.156 / 0.108 / 0.0738", "leaf margin": "0.0276 / 0 / 0.0232", "systemic leaves": "0 / 0 / 0.0205"}
{"sequence": "UGUACGCUCG", "pool": "0.235", "inoculated region": "0.104 / 0.108 / 0.111", "leaf margin": "0 / 0 / 0.0232", "systemic leaves": "0 / 0 / 0"}
{"sequence": "UGUACGCUGG", "pool": "0.301", "inoculated region": "0.0521 / 0.108 / 0.0553", "leaf margin": "0 / 0 / 0.0464", "systemic leaves": "0 / 0 / 0"}
{"sequence": "UGUACGCUUG", "pool": "0.314", "inoculated region": "0.0521 / 0.108 / 0.0738", "leaf margin": "0 / 0 / 0", "systemic leaves": "0 / 0 / 0"}
{"sequence": "UGUACGGAAG", "pool": "0.0784", "inoculated region": "0.730 / 0.772 / 0.682", "leaf margin": "0.110 / 0.101 / 0.0464", "systemic leaves": "0 / 0 / 0"}
{"sequence": "UGUACGGACA", "pool": "0.0131", "inoculated region": "0 / 0 / 0", "leaf margin": "0 / 0 / 0", "systemic leaves": "0 / 0 / 0"}
{"sequence": "UGUACGGACG", "pool": "0.196", "inoculated region": "0.104 / 0.0898 / 0.0553", "leaf margin": "0 / 0 / 0", "systemic leaves": "0 / 0 / 0"}
{"sequence": "UGUACGGAGG", "pool": "0.183", "inoculated region": "0.174 / 0.0898 / 0.0553", "leaf margin": "0.0276 / 0 / 0", "systemic leaves": "0 / 0 / 0"}
{"sequence": "UGUACGGAGU", "pool": "0.0131", "inoculated region": "0 / 0 / 0", "leaf margin": "0 / 0 / 0", "systemic leaves": "0 / 0 / 0"}
{"sequence": "UGUACGGAUG", "pool": "0.196", "inoculated region": "0.139 / 0 / 0.0738", "leaf margin": "0.0276 / 0 / 0.0232", "systemic leaves": "0 / 0 / 0"}
{"sequence": "UGUACGGCAG", "pool": "0.170", "inoculated region": "0.799 / 0.413 / 0.369", "leaf margin": "0.0552 / 0.101 / 0.0696", "systemic leaves": "0.0180 / 0 / 0"}
{"sequence": "UGUACGGCCG", "pool": "0.301", "inoculated region": "0.139 / 0.0898 / 0.0369", "leaf margin": "0 / 0 / 0.0232", "systemic leaves": "0 / 0 / 0"}
{"sequence": "UGUACGGCGG", "pool": "0.340", "inoculated region": "0.243 / 0.0719 / 0.0922", "leaf margin": "0 / 0 / 0.0696", "systemic leaves": "0.0180 / 0 / 0"}
{"sequence": "UGUACGGCUG", "pool": "0.261", "inoculated region": "0.139 / 0.0719 / 0.0738", "leaf margin": "0 / 0 / 0", "systemic leaves": "0 / 0 / 0"}

The last 2 entries again:

{"sequence": "UGUACGGCGG", "pool": "0.340", "inoculated region": "0.243 / 0.0719 / 0.0922", "leaf margin": "0 / 0 / 0.0696", "systemic leaves": "0.0180 / 0 / 0"}
{"sequence": "UGUACGGCUG", "pool": "0.261", "inoculated region": "0.139 / 0.0719 / 0.0738", "leaf margin": "0 / 0 / 0", "systemic leaves": "0 / 0 / 0"}

With 36,220-57,551 reads a sample, very low values are single reads. Wild type was 20.7 per thousand in the pool and the most common sequence in every sample (inoculated region 195, 198, 203; leaf margin 629, 591, 734; systemic leaves 942, 870, 868).

From the data files of Wu et al. 2024, doi:10.1371/journal.ppat.1012142.